Measurements taken from paper PMC4802734 (Cell Chemical Biology, 2016).

How the values were obtained:
[1] = test system: PrfA-regulated virulence genes in L. monocytogenes EGDe (PrfAWT); conditions: 100 μM; for expression of the hly gene: compared with the untreated control
[2] = test system: L. monocytogenes EGDe

| SMILES | expression of the hly gene [1] | expression of inlA and inlB ([1]; northern blot) | levels of the virulence genes hly, actA, and plcA transcripts ([1]; northern blot) | generation time of L. monocytogenes [2] [min] |
| --- | --- | --- | --- | --- |
| Cc1ccc(Cc2cc(=O)n3c(c2C2CC2)SC[C@H]3C(=O)O)c2ccccc12 [compound 2] | downregulated | unaffected | reduction | 50 |
| O=C(O)[C@@H]1CSc2c(C3CC3)c(Cc3cnc4ccccc4c3)cc(=O)n21 [compound 3] | not affected |  |  | 43 |
